The record followed here is patent US20250382354A1 (INSTITUTE FOR RESEARCH IN BIOMEDICINE IRB, published 2025).

Common to all, as to assay: protein ELISA
On the technique in general: ELISA stands for enzyme-linked immunosorbent assay.

Experiment [1] has as its target T1, SARS-CoV-2 SD1-RBD Beta (SARS-CoV-2 Beta).
T1 construct: domain: SD1-RBD

In experiment [2] the target is T2, SARS-CoV-2 SD1-RBD Gamma (SARS-CoV-2 Gamma).
T2 construct: domain: SD1-RBD

Experiment [3] has as its target T3, SARS-CoV-2 SD1-RBD Delta (SARS-CoV-2 Delta).
T3 construct: domain: SD1-RBD

Experiment [4] concerns the target T4, SARS-CoV-2 SD1-RBD Omicron BA.2 (SARS-CoV-2 Omicron BA.2).
T4 construct: domain: SD1-RBD

The target in experiment [5] is T5, SARS-CoV-2 S Omicron BA.1 (ectodomain) (SARS-CoV-2 Omicron BA.1).
T5 construct: extracellular domain

The target in experiment [6] is T6, SARS-CoV-2 S Omicron BA.4/BA.5 (ectodomain) (SARS-CoV-2 Omicron BA.4/BA.5).
T6 construct: extracellular domain

Experiment [7] concerns the target T7, SARS-CoV-2 SD1-RBD Omicron BA.4.6 (SARS-CoV-2 Omicron BA.4.6).
T7 construct: domain: SD1-RBD

In experiment [8] the target is T8, SARS-CoV-2 SD1-RBD Omicron BA.4.7 (SARS-CoV-2 Omicron BA.4.7).
T8 construct: domain: SD1-RBD

In experiment [9] the target is T9, SARS-CoV-2 SD1-RBD Omicron BA.5.9 (SARS-CoV-2 Omicron BA.5.9).
T9 construct: domain: SD1-RBD

Experiment [10] deals with T10, SARS-CoV-2 S Delta (ectodomain) (SARS-CoV-2 Delta).
T10 construct: extracellular domain

For experiment [11], the target named is T11, SARS-CoV-2 SD1-RBD Omicron BA.2.75.2 (SARS-CoV-2 Omicron BA.2.75.2).
T11 construct: domain: SD1-RBD

B1: sd1.129 (antibody, V domains shown)
VH: QVQLVQSGAEVKRPGSSVKVSCKASGGAFSNYAISWVRQAPGQGLEWMGGIIPIFGTTNYAQRFQGRVTISADESTGTAYMELSSLRFADTAIYYCARADAYSGSYYPSANWFDPWGQGTLVTVSS
VL: EIVLTQSPATLSLSPGERATLSCRASQSVSNYLAWYQQKPGQAPRLLIYDASNRATGIPARFSGSGSGTDFTLTISSLEPEDFAVYYCQQRQNWPPGWTFGQGTKVEIK
As a reminder, the EC50 is the midpoint of the concentration-response curve. Read a low EC50 as higher potency in that assay. For the molecule B1, the EC50 was 1.84 µg/mL in experiment [1]; 0.324 µg/mL in experiment [2]; 0.28 µg/mL in [3]; 1.3 µg/mL in experiment [4]; 0.277 µg/mL in [5]; 0.0983 µg/mL in [6].

B2: rbd.045 (antibody, V domains shown)
VH: QVQLQESGPGLVKPSETLSLTCTVSGGAFRSFFWTWIRQPPGKGLEWIGNIYYSGSTNYNPSLKSRVTISQDMSENQFSLKLSSVTAADTAVYYCARSQWLRGNFDHWGQGILVTVSS
VL: NFMLTQPHSVSESPGKTVTISCTATSGYIASNYVQWYQQRPGSAPTTVIYEDNQRPSGVPDRFSGSIDSSSNSASLTISGLKPEDEADYYCQSFDTAYAVFGGGTQLTVL
Regarding B2, the EC50 is 0.0323 µg/mL in [1]; 0.0258 µg/mL in experiment [2]; 0.0232 µg/mL in experiment [3]; 0.0384 µg/mL in [4]; 0.383 µg/mL in [7]; 0.407 µg/mL in experiment [8]. Besides, the EC50 in experiment [9] was determined as 0.35 µg/mL; in experiment [10], 0.0314 µg/mL; in experiment [6] it was 0.159 µg/mL.

B3: sd1.033 (antibody, V domains shown)
VH: QVQLVQSGAEVKKPGSSVKVSCKASGGVYSTYAVSWVRQAPGQGLEWIGGIIPMFGTANYAQNFQGRVTITADESTRTAYMEVSSLRSEDTAVYYCASPSAPTYYYDSSRYYSFDYWGQGTLVTVSS
VL: EIVLTQSPGTLSLSPGERATLSCRASQSVSSNFLAWFQQKPGQPPRLLIYGASSRATGIPDRFSGSGSGTDFTLTISRLVPEDFAVYFCQQYGSSRYSFGQGTKLEIK
As to B3, the EC50 in experiment [1] was 0.0385 µg/mL; in experiment [2], 0.0345 µg/mL; in experiment [3], 0.0222 µg/mL; in [4] it was 0.383 µg/mL; in experiment [10] it was 0.0859 µg/mL; in experiment [5], 1.26 µg/mL. In [6], this molecule gave an EC50 of 0.438 µg/mL.

B4: sd1.103 (antibody, V domains shown)
VH: QVQLVQSGAEVKKPGSSMKVSCKASGGTLNNYAIIWVRQAPGQGLEWMGGIIPMFGAANYAQNFQGRVTITADESTRTAYLELSSLRSEDTAMYYCARVVIPYLGAHYYHYGVDVWGQGTTVTVSS
VL: EIVLTQSPGTLSLSPGERATLSCRASQSVTSNYLAWYQQKPGQAPRLLIYGASSRAAGIPDRFNGSGSGTDFTLTISRLEPEDFAVYYCQQYGSSRYTFGQGTKLEIK
Regarding B4, the EC50 in experiment [1] worked out at 0.358 µg/mL; in [2] it was 0.244 µg/mL; in [3] it was 0.3 µg/mL; in [4] it was 0.508 µg/mL; in [10], 0.0624 µg/mL; in [5] it was 2.03 µg/mL. In addition, a half-maximal response in [6] (EC50) required 0.239 µg/mL.

B5: rbd.048 (antibody, V domains shown)
VH: EVQLVESGGGLVQPGGSLRLSCAASGFTVSSNYMTWVRQAPGKGLEWVSVIYSGGSTFYTDSVKGRFTISRDNSKNTLYLQMNSLRAEDTAVYYCARDVVYYGMDVWGQGTTVTVSS
VL: DIQMTQSPSSLSASVGDRVTITCRASQSISSYLNWYQQKPGKAPKLLIYAASSLQSGVPSRFSGSGSGTDFTLTISSLQPEDFATYYCQESYSNSPYTFGQGTKLEIK
Consider B5, for which the EC50 was 0.936 µg/mL in [1]; 0.0785 µg/mL in experiment [2]; 0.0122 µg/mL in [3]; 0.0114 µg/mL in experiment [10]; 0.21 µg/mL in experiment [5]; 44.1 µg/mL in experiment [6].

B6: sd1.039 (antibody, V domains shown)
VH: EVQLVQSGAEVKKPGESLKISCKASGYSFPTYWIGWVRQMPGKGLEWMGIIYPGDSDTRYSPSFQGQVTISADKSISTAYLQWSSLKASDTAIYYCARYGDSHIDSWGQGTLVTVSS
VL: QSVLTQPRSASASLGASVTLNCTLSSGYSKYKVEWYQQRPGKGPRFLMRVGAGGIVGSKGDGIPDRFSVLGSGLNRYLIIKNIQQEDESDYHCGADHGSGSNFAYVVFGGGTKLTVL
In the case of B6, the EC50 in experiment [1] was determined as 0.0236 µg/mL; in experiment [2], 0.0235 µg/mL; in experiment [3], 0.0186 µg/mL; in [4] it was 0.0224 µg/mL; in experiment [11], 0.0273 µg/mL; in experiment [7], 0.0372 µg/mL. In addition, the EC50 in experiment [8] was determined as 0.0391 µg/mL; in experiment [9] it was 0.0305 µg/mL; in [10] it was 0.0423 µg/mL; in experiment [5] it was 0.0597 µg/mL; in [6], 0.0323 µg/mL.

B7: sd1.107 (antibody, V domains shown)
VH: QVQLVQSGAEVKKPGSSVKVSCKASGGTFSSYAISWVRQAPGQGLEWMGGIIPMFGTTNYAQKFQGRVTITADESTSTAYMELSSLRSEDTAVYYCARVTHLNWRRGYEVGRISGAFDIWGQGTMVTVSS
VL: not shown
On to B7, for which the EC50 in [2] was determined as 5.96 µg/mL; in experiment [4], 6.3 µg/mL; in experiment [10], 1.56 µg/mL; in experiment [5], 2.8 µg/mL; in [6], 2.96 µg/mL.

B8: sd1.034 (antibody, V domains shown)
VH: EVQLVESGGGVVQPGRSLRLSCAASGFSFSNYGMHWVRQAPGKGLEWVAVISYDGSHKSFADSVKGRFTISRDNSKNTLNLQMNSLRREDTAVYYCATDQGGSLGYWGQGTLVTVSS
VL: QSALTQPASVSGSPGQSITISCTGTSGDVGGYNYVSWYQHHPGKAPKLMIYDVSNRPSGVSNRFSGSKSGNTASLTISGLQAEDEADYYCSSYTSTSTSWVFGGGTKLTVL
As to B8, the EC50 in experiment [1] worked out at 0.0191 µg/mL; in [2], 0.0206 µg/mL; in [3] it was 0.0112 µg/mL; in experiment [11], 0.0344 µg/mL; in experiment [8], 0.0335 µg/mL; in experiment [9], 0.0298 µg/mL. Besides, the EC50 turned out to be 0.0232 µg/mL in experiment [10], 0.0683 µg/mL in experiment [5] and 0.0416 µg/mL in [6].

B9: sd1.100 (antibody, V domains shown)
VH: QVQLQESGPGLVKPSQTLSLTCSVSGDSITSGNYYWSWIRQHPGKGLEWIGNIFHTGNTYYNPSLKSRVTISIDTSKNQFSLKLSSVTAADTALYYCARDHKRLEGDWFDPWGQGSLVTVSS
VL: QSVLTQPPSASGTPGQRVTISCSGSSSNIGSNTVNWYLQLPGTAPKLLIYSNNLRPSGVPDRFSGSKSGTSASLAISGLQSGDEADYFCAAFDDSLSGPVFGGGTKLTVL
Regarding B9, the EC50 in experiment [3] came to 2.4 µg/mL; in experiment [4], 0.0739 µg/mL; in [11] it was 0.19 µg/mL; in [7], 0.199 µg/mL; in [8], 0.186 µg/mL; in [9], 0.21 µg/mL. For the same molecule, the EC50 in experiment [10] is 0.309 µg/mL; in experiment [5] it was 1.84 µg/mL; in experiment [6], 0.309 µg/mL.

B10: sd1.102 (antibody, V domains shown)
VH: QVQLVQSGAEVKKPGSSVKVSCKASGGTFSSYAISWVRQAPGQGLEWMGGIIPLYGTANYAQKFQGRVTITADESTSTTYMELSSLTSEDTAVYYCVRFRGGDYYYYYGMDVWGQGTTVTVSS
VL: EIVMTQSPATLSVSPGESATLSCRASQTVSTNLAWYQQKPGQAPRLLIFGASTRATGIPARFSGSGSGTEFTLSISSLQSEDFAVYYCHQYNSRRTFGQGTKLEIK
For B10, the EC50 came to 3.17 µg/mL in [1]; 1.26 µg/mL in experiment [2]; 0.811 µg/mL in experiment [3]; 0.0996 µg/mL in experiment [10]; 2.22 µg/mL in [5]; 0.537 µg/mL in experiment [6].

B11: sd1.132 (antibody, V domains shown)
VH: QVQLVQSGTEVKKPGSSVKVSCKASGGTFSSYAISWVRQAPGQGLEWMGGIIPMFGAPNYAQKVQGRVTITADESTSTAYMELSSLRSEDTAVYYCARMEYSNSPGRGGYYFYSNGMDVWGQGTTVTVSS
VL: EIVLTQSPATLSLSPGERATLSCRASQSVSTYLAWLQQKPGQAPRLLMYDASNRASGIPARFSGSGSGTEFTLTISSLEPEDFAVYYCQQRTYWPLTFGGGTKVEIK
For B11, the EC50 is 1.82 µg/mL in [1]; 0.932 µg/mL in [2]; 0.919 µg/mL in [3]; 3.13 µg/mL in [4]; 0.0694 µg/mL in experiment [10]; 1.01 µg/mL in experiment [5]. Moreover, a half-maximal effect in [6] (EC50) was put at 0.354 µg/mL.

B12: rbd.038 (antibody, V domains shown)
VH: QVQLVQSGAEVKKPGASVKVSCKASGYTFSGYYMHWVRQAPGQGLEWVGWISPTSGGTKYAQKFQGRVTMTRDTSITTVYMELNRLRSDDTAVYYCAREPFPYCTSDICHSNYFYYYAMDVWGQGTTVTVSS
VL: QSALTQPPSASGSPGQSVTISCTGSSSDLGDHNYVSWYQQHPGKAPKVMIYEVSKRPSGVPDRFSGSKSGNTASLTVSGLQAEDEADYYCSSYAGSLYVFGTGTKVTVL
Consider B12, for which the EC50 in experiment [1] came out at 0.0357 µg/mL; in experiment [2], 0.0173 µg/mL; in [3], 0.016 µg/mL; in experiment [10], 0.0175 µg/mL; in experiment [5] it was 3.11 µg/mL; in experiment [6], 3.41 µg/mL.
